Our source for the IC50 values is publication PMC10208570 (2023).

Residue numbers refer to the chain shown, from its start. Names may count otherwise.

In one experiment the target is T1, LptAm^Q62L (E. coli) (E. coli (ATCC 25922)).
T1 chain: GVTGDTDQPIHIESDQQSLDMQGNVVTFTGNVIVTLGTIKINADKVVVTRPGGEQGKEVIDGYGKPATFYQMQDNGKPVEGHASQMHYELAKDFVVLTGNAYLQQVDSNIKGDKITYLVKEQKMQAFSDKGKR
In words: FP.

Experiment [1] has as its target T2, LptAm (E. coli), monomeric truncated variant of LptA (E. coli (ATCC 25922)).
T2 chain: T1 chain with L36Q
As to the kind of experiment: FP.

B1: LptC^AA (E. coli), periplasmic domain LptC(25-191) Y60A R61A (domain or fragment)
chain: GAEKDDTAQVVVNNNDPTYKSEHTDTLVYNPEGALSAALIAQHVEYYSDQAVSWFTQPVLTTFDKDKIPTWSVKADKAKLTNDRMLYLYGHVEVNALVPDSQLRRITTDNAQINLVTQDVTSEDLVTLYGTTFNSSGLKMRGNLRSKNAELIEKVRTSYEIQNKQTQP
For orientation: IC50 means the concentration that inhibits the measured activity by half. Read a high IC50 as weaker potency in that assay. On to B1, for which the IC50 was around 38.7 µM with LptAm^Q62L (E. coli) and 10.8 µM in experiment [1].
